B1: NiV PNT3 (domain or fragment)
chain: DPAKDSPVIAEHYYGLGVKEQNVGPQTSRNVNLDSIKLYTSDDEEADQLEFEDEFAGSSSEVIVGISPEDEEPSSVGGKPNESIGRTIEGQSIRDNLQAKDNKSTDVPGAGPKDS
B2: HeV PNT3 wt (domain or fragment)
chain: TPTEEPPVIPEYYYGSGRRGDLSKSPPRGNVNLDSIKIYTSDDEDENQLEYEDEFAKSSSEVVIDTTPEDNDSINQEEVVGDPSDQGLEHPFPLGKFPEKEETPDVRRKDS

Molecular target: the molecule itself

Protein	binding result
B1	binds
B2	binds
